Results: article PMC8126837 (Proceedings of the National Academy of Sciences of the …, 2021)

Target: SARS-CoV-2 receptor-binding domain (RBD), wild type (SARS-CoV-2, UniProt P0DTC2, DyLight 488 (NHS ester, about 1.9 dye/protein) in the FRET assay only)
Assay: cell-based or functional assay

B1: WNb 10 (VHH)
VHH: QVQLQESGGGLVQPGGSLRLSCAASGFTFRRYLMGWARQVPGKGLEWVSGIYSDGSTYYADSVKGRFTISRDNAKNTVYLQMNSLKPEDTAVYYCAKDRMDGSTWPERDFGSWGQGTQVTVSS
- neutralisation of WT SARS-CoV-2, MNV assay; blocks RBD-ACE2: 68.1 nM
